Test results published in patent publication US4794170A (priority 1984, dated 1988).

What was measured:
[1] = system: receptors of the hepatocytes specific for the proteins ending with the galactose; assay: Disappearance from plasma of [14C]asialofetuine (AF) in the mouse; type: in vivo, mice (female Swiss); settings: in words; conjugate vs equal amount of non conjugated L31 HSA
Ectromelia virus = system: Ectromelia virus; set-up: species or system mice; settings: mouse, in vivo
[2] = Solubility and molar ratio after lyophilization and storage; type: physicochemical; settings: 0°-4° C. or room temperature; at least up to 4 months (maximum time tested)
[3] = mouse, in vivo, iv

Substance: conjugate 1: conjugate of ara-AMP with L31-HSA, ECDI, pH 7.5, 25° C., 24 hours, molar ratio 14
- inhibition of the disappearance of radioactive asialofetuine from plasma [1]: competitively inhibited at the same rate
- Inhibition of the DNA synthesis % liver (Ectromelia virus): 32% and 41%
- synthesis of DNA in the liver (Ectromelia virus): inhibits the synthesis of DNA in the liver
- solubility on storage [2]: do not decrease
- maximum tested dose relative to the dose used for treatment of Ectromelia hepatitis [3]: 40-50 times

Values joined by “and” are separate entries in the source; they are usually repeats but may differ in a detail not shown here. Equal entries are not always repeated.
